Pooled drug test results. Numbers come from NIAID ChemDB, via PubChem.

Shared fields: host cell toxicity; cells: MT-4; method: MTT; measure: CC50

Conditions beyond the fields shown may differ between rows.

SMILES,value
Cc1c(Cl)nc(Nc2ccc(C#N)cc2)nc1Oc1ccc2ccccc2c1,221 µM
COc1c(-c2cc(C)on2)c(O)c(S(=O)(=O)OC2CCCC2)c2occc12,320 µM
Oc1ccccc1/C=N/Nc1nc(-c2ccc(Cl)cc2)cs1,102 µM
COc1cc2c(c3oc(=O)c(CBr)c(C)c13)[C@@H](OC(=O)C13CCC(C)(C(=O)O1)C3(C)C)[C@@H](OC(=O)C13CCC(C)(C(=O)O1)C3(C)C)C(C)(C)O2,>65.88 µM
CCc1c(Cl)nc(Nc2ccc(C#N)cc2)nc1Oc1ccc2ccccc2c1Cl,169 µM
Cc1ccc(C)c(CS(=O)(=O)c2ccccn2)c1,46 µg/mL
Cc1c(COC(N)=O)c(=O)oc2c3c(ccc12)OC(C)(C)[C@H](OC(=O)C12CCC(C)(C(=O)O1)C2(C)C)[C@@H]3OC(=O)C12CCC(C)(C(=O)O1)C2(C)C,44.05 µM
O=C(COc1nsnc1-c1cccc2ccccc12)Nc1ccccn1,≥13 µM
COc1c2ccoc2c(S(=O)(=O)Oc2ccc(F)cc2)c2oc(C)cc(=O)c12,530 µM
Cc1cc(C)c(-n2c(SCC(=O)Nc3ccc(C)cc3Br)nc3cnccc32)c(C)c1,5.9 µM
CC(C)(C)NC(=O)[C@@H]1CN(Cc2cccnc2)CCN1C[C@@H](O)C[C@@H](Cc1ccccc1)C(=O)N[C@H]1c2ccccc2C[C@H]1OC(=O)[C@H](Cc1ccccc1)NC(=O)OC(C)(C)C,>100 µM
Cc1ccc(C)c(C(Cl)S(=O)(=O)c2cc(C)cc[n+]2[O-])c1,>4 µg/mL
N#Cc1ccc(Nc2nccc(Oc3cc4ccc(C#N)cc4cc3Br)n2)cc1,>56.53 µM
COc1ccc(Cn2cc(COc3nsnc3-c3cccc4ccccc34)nn2)cc1,>116 µM
CC1(C)Oc2ccc3cc(CC#N)c(=O)oc3c2[C@@H](OC(=O)C23CCC(C)(C(=O)O2)C3(C)C)[C@H]1OC(=O)C12CCC(C)(C(=O)O1)C2(C)C,>73.42 µM
Nc1ncnc2c1ncn2C12C=C[C@@H](CO)[C@@H]1C2,>100 µg/mL
COc1cc2c(c3oc(=O)c(CC#N)c(C)c13)[C@@H](OC(=O)C13CCC(C)(C(=O)O1)C3(C)C)[C@@H](OC(=O)C13CCC(C)(C(=O)O1)C3(C)C)C(C)(C)O2,>70.92 µM
COC(=O)C(C)NC(=O)CCCN1C(=O)c2ccccc2C1=O,101 µM
Cc1cc(C)cc(S(=O)(=O)c2c(C(=O)N[C@@H]3CCN(Cc4n[nH]c(=O)n4C)C3)[nH]c3ccc(Cl)cc23)c1,22.43 µM
CC(C)(C)NC(=O)[C@@H]1C[C@@H]2CCCC[C@@H]2CN1C[C@@H](OC(=O)NCCCCOc1ccc(C[C@H](N)C(=O)O)cc1)[C@H](Cc1ccccc1)NC(=O)[C@H](CC(N)=O)NC(=O)c1ccc2ccccc2n1,>100 µM
C(=N\Nc1nc(-c2ccccc2)cs1)/c1cccnc1,11.6 µM
COc1c2ccoc2c(S(=O)(=O)Oc2ccc([N+](=O)[O-])cc2)c2oc(C)cc(=O)c12,560 µM
CNc1nc(Nc2ccc(C#N)cc2)nc(Oc2ccc3cc(C#N)ccc3c2)c1C(C)C,>288 µM
COc1cc2c(c3oc(=O)c(C)c(C)c13)[C@@H](OC(=O)C13CCC(C)(C(=O)O1)C3(C)C)[C@@H](OC(=O)C13CCC(C)(C(=O)O1)C3(C)C)C(C)(C)O2,>73.53 µM
Cc1cc(C)cc(S(=O)(=O)c2c(C(=O)NS(=O)(=O)c3ccc(F)cc3)[nH]c3ccc(Cl)cc23)c1,121 µM
Cc1c(Cl)nc(Nc2ccc(C#N)cc2)nc1Oc1ccc2ccccc2c1Br,153 µM
Cc1c(O)cccc1C(=O)N[C@@H](CSc1ccccc1)[C@@H](CN1C[C@H]2CCCC[C@H]2C[C@H]1C(=O)NC(C)(C)C)OC(=O)NCCCCOc1ccc(C[C@H](N)C(=O)O)cc1,>100 µM
Cc1ccnc2c1NC(=O)c1cccnc1N2C1CC1,>4 µM
Cc1cc(C)cc(S(=O)(=O)c2c(C(=O)NCCn3ccc(=O)[nH]c3=O)[nH]c3ccc(Cl)cc23)c1,40.15 µM
CCc1c(Cl)nc(Nc2ccc(C#N)cc2)nc1Oc1ccc2cc(C#N)ccc2c1Br,167 µM
CCCCCCCCCCCCCCCC(=O)OCC(COC(=O)CCCCCCCCCCCCCCC)OC(=O)CCC(=O)O[C@@H](C[C@@H](Cc1ccccc1)C(=O)N[C@H]1c2ccccc2C[C@H]1OC(=O)CCC(=O)OC(COC(=O)CCCCCCCCCCCCCCC)COC(=O)CCCCCCCCCCCCCCC)CN1CCN(Cc2cccnc2)C[C@H]1C(=O)NC(C)(C)C,>100 µM
Cc1cc(C)cc(S(=O)(=O)c2c(C(=O)NS(=O)(=O)c3ccccc3)[nH]c3ccc(Cl)cc23)c1,131 µM
COc1c(-c2cc(C)n(-c3ccccc3)n2)c(O)c(S(=O)(=O)Oc2ccc(F)cc2)c2occc12,110 µM
Fc1ccccc1Cn1cc(COc2nsnc2-c2cccc3ccccc23)nn1,≥79 µM
Cc1cc(C)c(-n2c(SCC(=O)Nc3ccc([N+](=O)[O-])cc3Cl)nc3cnccc32)c(C)c1,29 µM
Cc1ccnc2c1NC(=O)c1cccnc1N2C1CC1,>15 µM
CCS(=O)(=O)NC(=O)c1[nH]c2ccc(Cl)cc2c1S(=O)(=O)c1cc(C)cc(C)c1,147 µM
Cc1cc(C)c(-n2c(SCC(=O)Nc3ccc(Cl)cc3Cl)nc3cccnc32)c(C)c1,3.9 µM
Brc1ccc(-c2csc(N/N=C/c3ccccn3)n2)cc1,2.71 µM
Cc1c(OC(=O)CCCCOc2ccc(C[C@H](NC(=O)OC(C)(C)C)C(=O)O)cc2)cccc1C(=O)N[C@@H](CSc1ccccc1)[C@@H](CN1C[C@H]2CCCC[C@H]2C[C@H]1C(=O)NC(C)(C)C)OC(=O)CCCCOc1ccc(C[C@H](NC(=O)OC(C)(C)C)C(=O)O)cc1,>100 µM
Cc1cc(C)cc(S(=O)(=O)c2c(C(=O)NC3CN(S(C)(=O)=O)C3)[nH]c3ccc(Cl)cc23)c1,>252 µM
O=[N+]([O-])c1ccc(-c2csc(N/N=C/c3cccnc3)n2)cc1,62.4 µM
Cc1cc(C)c(-n2c(SCC(=O)Nc3ccccc3C)nc3cnccc32)c(C)c1,22 µM
Cc1cc(C)cc(S(=O)(=O)c2c(C(=O)NC3CN(Cc4n[nH]c(=O)n4C)C3)[nH]c3ccc(Cl)cc23)c1,25.18 µM
Cc1c(Oc2ccnc(Nc3ccc(C#N)cc3)n2)ccc2ccccc12,>70.94 µM
COc1c(C(=O)/C=C(/C)Nc2ccccc2)c(O)c(S(=O)(=O)Oc2ccc([N+](=O)[O-])cc2)c2occc12,410 µM
O=C(CCCN1C(=O)c2ccccc2C1=O)NC(=S)NC(Cc1ccc(O)cc1)C(=O)O,37.82 µM
Cc1cc(C)cc(S(=O)(=O)c2c(C(=O)N[C@H]3CCN(Cc4n[nH]c(=O)n4C)C3)[nH]c3ccc(Cl)cc23)c1,21.45 µM
COC(=O)C(Cc1ccccc1)NC(=O)CCCN1C(=O)c2ccccc2C1=O,37.82 µM
Cc1cnc(Nc2ccc(C#N)cc2)nc1C(C)(O)c1ccc(F)cc1,38.2 µM
Cc1cc(C)c(-n2c(SCC(=O)Nc3ccccc3[N+](=O)[O-])nc3cccnc32)c(C)c1,39 µM
Cc1ccc(C)c(CS(=O)(=O)c2cccc[n+]2[O-])c1,34 µg/mL
Cc1cc(C)cc(S(=O)(=O)c2c(C(N)=O)[nH]c3ccc(Cl)cc23)c1,12.95 µM
O=C(Cl)CCCN1C(=O)c2ccccc2C1=O,52.8 µM
CC(C)(C)NC(=O)[C@@H]1CN(Cc2cccnc2)CCN1C[C@H](C[C@@H](Cc1ccccc1)C(=O)N[C@H]1c2ccccc2C[C@H]1OC(=O)CCCCOc1ccc(C[C@H](N)C(=O)O)cc1)OC(=O)CCCCOc1ccc(C[C@H](N)C(=O)O)cc1,>100 µM

6 of the rows above, restated:

SMILES,value
COc1c(C(=O)/C=C(/C)Nc2ccccc2)c(O)c(S(=O)(=O)Oc2ccc([N+](=O)[O-])cc2)c2occc12,410 µM
O=C(Cl)CCCN1C(=O)c2ccccc2C1=O,52.8 µM
Nc1ncnc2c1ncn2C12C=C[C@@H](CO)[C@@H]1C2,>100 µg/mL
Cc1cc(C)c(-n2c(SCC(=O)Nc3ccc(C)cc3Br)nc3cnccc32)c(C)c1,5.9 µM
Cc1c(Oc2ccnc(Nc3ccc(C#N)cc3)n2)ccc2ccccc12,>70.94 µM
CCc1c(Cl)nc(Nc2ccc(C#N)cc2)nc1Oc1ccc2cc(C#N)ccc2c1Br,167 µM

CCn is the concentration with n% toxicity to the cells.